Assay results as given in patent publication US10682388B2, “Targeting of PELP1 in cancer therapy” (THE BOARD OF REGENTS OF THE UNIVERSITY OF TEXAS SYSTEM, priority 2014, dated 2020).

Test system: ZR75 cells
Test: Cellular uptake assay with FITC-labeled peptide, confocal microscopy
Type: cell-based, Human
Conditions: 10 uM FITC labeled peptide, FIG. 1C

GRKKRRQRRRGGMVEFRWSCPGRRKAKA [PIP1]
time at which peptide enters the cell membrane: 30 min | time by which peptide enters the nucleus: ≤ 120 min
